A mixed list of measured activities; the numbers were collected in NIAID ChemDB.

All rows: growth or infection tests; agent: Mycobacterium tuberculosis

MIC50, MIC90 and the like: level of inhibition, or share of isolates inhibited. ECn is the concentration giving n% inhibition of infection, replication or growth. Conditions beyond the fields shown may differ between rows. MIC bound comes from a single tested concentration. An empty or dashed field is not shown. Inhibition is in % at the dose shown (toxicity tests: loss of growth or viability).

SMILES,tested at,read by,strain or isolate,cell line,read-out,changes,value
Cc1ccc(Sc2nc(Cl)nc3nc[nH]c23)cc1C,,,H37Ra,,MIC,,>12.8 µg/mL
Cc1nc2scc(-c3ccco3)c2c(=O)n1/N=C/c1ccco1,,,CNCTC MY331/88,,MIC,,56 µM
O=[N+]([O-])c1ccc(Sc2nc3c(Br)c(Br)c(Br)c(Br)c3[nH]2)c([N+](=O)[O-])c1,,,My 331/88,,MIC,,16 µM
O=C(Nc1ccc(S(=O)(=O)Nc2nccs2)cc1)c1cccnc1Nc1cccc(Cl)c1,,BACTEC,H37Rv,,MIC bound,,>12.5 µg/mL
O=C(NNCc1cccc(C(F)(F)F)c1)c1ccncc1,,,Thiacetazone-resistant,,MIC,,>6.25 µg/mL
Cc1nc2scc(-c3ccco3)c2c(=O)n1/N=C/c1ccccc1,,,CNCTC MY331/88,,MIC,,50 µM
O=c1ccc2nc3ccccc3sc-2c1,12.5 µg/mL,BACTEC,H37Rv,,inhibition,,98%
CO[C@H]1/C=C/O[C@@]2(C)Oc3c(C)c(O)c4c(O)c(c(/C=N/N5CCN(C)CC5)c(O)c4c3C2=O)NC(=O)/C(C)=C\C=C\[C@H](C)[C@H](O)[C@@H](C)[C@@H](O)[C@@H](C)[C@H](OC(C)=O)[C@@H]1C,,resazurin,SIT26,,MIC,,2 µg/mL
CC[C@@H](O)C[C@@H]1O[C@@]2(CC[C@@H]1C)C[C@@H]1OC(=O)/C=C/[C@@](C)(O)[C@@H](O)[C@@H](C)[C@@H](O)[C@H](OC3CC(OC)C(O)C(C)O3)[C@@H](O)[C@](C)(O)CCC/C=C/[C@@H]3C[C@H](C)CO[C@@]3(O)C[C@H](O2)[C@H]1C,,BACTEC,H37Rv,,MIC,,≥12.5 µg/mL
O=C(Cc1csc2nc(-c3ccccc3)cn12)N/N=C/c1c(Cl)cccc1Cl,12.5 µg/mL,,H37Rv,,inhibition,,17%
CC(NNC(=O)c1ccncc1)c1ccc(F)cc1,,,H37Rv (ethionamide-resistant),,MIC,,>31.25 µg/mL
NC(=N\N=C\c1ccc(Cl)cc1Cl)/C(N)=N/N=C/c1ccc(Cl)cc1Cl,12.5 µg/mL,BACTEC,H37Rv,,inhibition,,8%
C/C(=N\NC(=O)c1ccncc1)c1ccccc1F,,,H37Rv (ethionamide-resistant),,MIC,,>31.25 µg/mL
CC1=C2C(=CO[C@H](C)[C@H]2C)C(=O)C(C(=O)O)=C1O,100 µg/mL,,H37Rv,,inhibition,,95%
CC1CCCCN1c1cncc(C(=O)NO)n1,,,SP 607,,MIC,,500 µg/mL
COc1ccc(C(=O)Nn2c(C)nc3scc(-c4ccco4)c3c2=O)cc1,,,CNCTC MY331/88,,MIC,,16 µM
O=C1OC(CCl)CN1/N=C/c1ccc([N+](=O)[O-])o1,6.25 µg/mL,resazurin,H37Rv,,inhibition,,3%
O=C(Cc1csc2nc(-c3ccccc3)cn12)N/N=C/c1cccs1,12.5 µg/mL,,H37Rv,,inhibition,,48%
O=C(NNCc1ccccc1)c1ccncc1,,,H37Rv,,MIC,,0.2 µg/mL
COc1cccc(C2SCC(=O)N2c2nncs2)c1,12.5 µg/mL,BACTEC,H37Rv,,inhibition,,5%
O=[N+]([O-])c1ccc(Sc2nc3c(Br)cc(Br)cc3[nH]2)cc1,,,My 331/88,,MIC,,2 µM
CC1COc2c(N3CCN(C)CC3)c(F)cc3c(=O)c(C(=O)O)cn1c23,,,001-005 (DRUG-SUS),,MIC,,1 µg/mL
CO[C@H]1/C=C/O[C@@]2(C)Oc3c(C)c(O)c4c(O)c(c(/C=N/N5CCN(C)CC5)c(O)c4c3C2=O)NC(=O)/C(C)=C\C=C\[C@H](C)[C@H](O)[C@@H](C)[C@@H](O)[C@@H](C)[C@H](OC(C)=O)[C@@H]1C,,,12761,,MIC,,0.1 µg/mL
CC1(C)N=c2cc3c(cc2N1c1ccc(Cl)cc1)=Nc1ccccc1N3c1ccc(Cl)cc1,,,H37Rv,VERO,MIC,,0.8 µg/mL
CN1CCCCC1CCN1c2ccccc2Sc2ccc(S(C)=O)cc21,,,5 isolates (polydrug resistance),,MIC,,4 µg/mL
c1ccc(CSc2ncccn2)cc1,6.25 µg/mL,,H37Rv,,inhibition,,0%
Cc1nc2scc(-c3ccco3)c2c(=O)n1/N=C/C1CC1,,,CNCTC MY331/88,,MIC,,66 µM
COc1ccc(/C=N/N(C(=O)c2ccncc2)C(=O)c2cnccn2)c(O)c1,,,9 isolates (sensitive),,MIC,,>16 µg/mL
O=S(=O)(N=C([S-])[S-])c1ccccc1.[K+].[K+],,BACTEC,H37Rv,,MIC,,≥12.5 µg/mL
C/C(=N\NC(=O)c1ccncc1)c1ccc(F)cc1,,,H37Rv (thiacetazone-resistant),,MIC,,>32 µg/mL
O=c1ccc2ccc3occc(=O)c3c2o1,12.5 µg/mL,BACTEC,H37Rv,,inhibition,,0%
OCNC(=S)c1cncc(-n2ccnc2)n1,,,H37Rv,,MIC,,250 µg/mL
CO[C@H]1/C=C/O[C@@]2(C)Oc3c(C)c(O)c4c(O)c(c5c(c4c3C2=O)NC2(CCN(CC(C)C)CC2)N=5)=NC(=O)/C(C)=C\C=C\[C@H](C)[C@H](O)[C@@H](C)[C@@H](O)[C@@H](C)[C@H](OC(C)=O)[C@@H]1C,,,15 isolates (SER531LEU),,MIC,,>5 µg/mL
Cc1cccc(CSc2ncnc3nc[nH]c23)c1,6.25 µg/mL,,H37Rv,,inhibition,,0%
O=C(O)CSC(=S)N1CCN(C(=S)SCC(=O)O)CC1,12.5 µg/mL,BACTEC,H37Rv,,inhibition,,5%
O=C(c1ccncc1)N(/N=C/c1cccc([N+](=O)[O-])c1)C(=O)c1cnccn1,,,H37Rv,,MIC,,1 µg/mL
O=[N+]([O-])c1cc(Sc2nc3ccc(Cl)cc3[nH]2)cc([N+](=O)[O-])c1,,,My 331/88,,MIC,,2 µM
Oc1cc(-c2ccccc2)ccc1Oc1ccc(Cl)cc1Cl,,,H37Rv,,MIC,,27 µM
O=C(Cc1csc2nc(-c3ccccc3)cn12)N/N=C/c1cc(Br)ccc1O,,,H37Rv,,EC50,,>12.5 µg/mL
CN(C)CCCN1c2ccccc2Sc2ccc(Cl)cc21,,,22 isolates,,MIC,,2 µg/mL
O=C(c1ccncc1)N(NCc1cccc(Cl)c1)C(=O)c1cnccn1,,,H37Rv,,MIC,,0.125 µg/mL
O=C(O)C(=O)O.OC(CNCCc1ccccc1)CN1c2ccccc2Sc2ccccc21,,resazurin,STB-960,,MIC,,1 µg/mL
Cn1c(=O)c2c(nc(CCCCCCCc3nc4c(c(=O)n(C)c(=O)n4C)n3C)n2C)n(C)c1=O,6.25 µg/mL,BACTEC,H37Rv,,inhibition,,0%
CC1CN(c2cncc(C#N)n2)CC(C)O1,,,Ethionamide-resistant,,MIC,,500 µg/mL
O=C(c1ccncc1)N(NCc1cccc([N+](=O)[O-])c1)C(=O)c1cnccn1,,,H37Rv,,MIC,,0.25 µg/mL
O=[N+]([O-])c1ccc(Sc2nc3c(Br)cc(Br)cc3[nH]2)c([N+](=O)[O-])c1,,,My 331/88,,MIC,,16 µM
O=C(O)c1cn(-c2ccc([N+](=O)[O-])cc2F)c2cc(N3CCCCC3)c(F)cc2c1=O,6.25 µg/mL,BACTEC,H37Rv,,inhibition,,97%
O=[N+]([O-])c1ccc(Sc2nc3c(Br)c(Br)c(Br)c(Br)c3[nH]2)cc1,,,My 331/88,,MIC,,16 µM
Nc1ccc(-n2cc(C(=O)O)c(=O)c3ccc(N4CCCCC4)cc32)c(F)c1,6.25 µg/mL,BACTEC,H37Rv,,inhibition,,0%
COc1cccc(Sc2ccncc2)c1,6.25 µg/mL,,H37Rv,,inhibition,,12%
CC(=O)NC1C(O)OC(CO)C(OC2OC(CO)C(O)C(O)C2NC(=O)NCCCCCCNC(=O)n2cc(F)c(=O)[nH]c2=O)C1O,,,H37Rv,,MIC,,>12.5 µg/mL
O=C(c1ccncc1)N(/N=C/c1ccco1)C(=O)c1cnccn1,,,H37Rv,,MIC,,4 µg/mL
Cc1nc2scc(-c3ccco3)c2c(=O)n1NC(=O)c1ccc(F)cc1F,,,CNCTC MY331/88,,MIC,,4 µM
CN1CCc2cc3c(c4c2C1C(O)c1ccccc1-4)OCO3.Cl,,BACTEC,H37Rv,,MIC bound,,>12.5 µg/mL
O=C(c1ccncc1)N(/N=C/c1cccc(Oc2ccccc2)c1)C(=O)c1cnccn1,,,H37Rv,,MIC,,>16 µg/mL
Cn1c(CBr)nc2c1C(=O)c1nc(CBr)[nH]c(=O)c1C2=O,12.5 µg/mL,BACTEC,H37Rv,,inhibition,,0%
C[n+]1cc2c(cn3c4ccccc4ccc23)c2ccccc21.[I-],,resazurin / visual reading,H37Rv,,MIC,Ethionamide-resistant,6.2 µg/mL
Cc1ccccc1CSc1ccccn1,,,H37Ra,,MIC,,>12.8 µg/mL
C/C=C/C1=CC=C/C(=C2\C(=O)CNC2=O)O1,,resazurin / visual reading,H37Rv,,MIC,Ethionamide-resistant,3.1 µg/mL
Cc1nc2scc(-c3ccco3)c2c(=O)n1/N=C/c1cccs1,,,CNCTC MY331/88,,MIC,,50 µM
NNC(=O)c1ccc(Cl)cc1,,,,,EC50,,<0.125 µg/mL
CN(C)CCCN1c2ccccc2Sc2ccccc21,,,,,MIC,,>25 µg/mL
COC(=O)c1cncc(N2CC(C)OC(C)C2)n1,,,Ethionamide-resistant,,MIC,,500 µg/mL
O=C1Cc2ccccc2C(O)=C1c1cnccn1,,BACTEC,H37Rv,,MIC,,≥12.5 µg/mL
FC(F)(F)C(F)(F)c1nc2cc(Cl)c(Cl)cc2[nH]1,,,My 331/88,,MIC,,8 µM
CC1OC(n2ccc(NC(=O)c3ccc(NC(=O)C(C)(N)CO)cc3)nc2=O)CCC1OC1OC(C)C(N(C)C)C(O)C1O,,,KM-R,,MIC,,0.8 µg/mL
Cc1ccc(C)c(Sc2ncccn2)c1,,,H37Rv,,MIC90,,>6.25 µg/mL
O=C(Cc1csc2nc(-c3ccccc3)cn12)N/N=C/c1ccc(C(=O)O)cc1,,,H37Rv,,EC50,,>12.5 µg/mL
CC1CN(c2cc3c(cc2F)c(=O)c(C(=O)O)cn3-c2ccc([N+](=O)[O-])cc2F)CC(C)N1,6.25 µg/mL,BACTEC,H37Rv,,inhibition,,98%
C[n+]1cc2c(cn3c4ccccc4ccc23)c2ccccc21,,resazurin / visual reading,H37Ra,,MIC,,0.7 µg/mL
C/C=N/n1c(C)nc2scc(-c3ccco3)c2c1=O,,,CNCTC MY331/88,,MIC,,62 µM
N#Cc1cncc(-n2cncn2)n1,,,Isoniazid-resistant,,MIC,,250 µg/mL
O=C(O)c1cn(-c2ccc([N+](=O)[O-])cc2)c2cc(N3CCN(Cc4ccc5cccc(O)c5n4)CC3)c(F)cc2c1=O,6.25 µg/mL,BACTEC,H37Rv,,inhibition,,44%
O=C(N/N=C/c1ccccc1F)c1ccncc1,,,H37Rv,,MIC,,0.05 µg/mL
COc1ccc(Sc2ncnc3nc[nH]c23)cc1,6.25 µg/mL,,H37Rv,,inhibition,,0%
Oc1cc2c3c(c1)c1cc4c(cc1c[n+]3CC2)OCO4.[Cl-],,BACTEC,H37Rv,,MIC,,≥12.5 µg/mL
O=C(Cc1csc2nc(-c3ccccc3)cn12)N/N=C/c1ccc([N+](=O)[O-])o1,,,H37Rv,,MIC,,>12.5 µg/mL
CC(=O)OC[C@H]1O[C@@H](Oc2ccc(C=C(C(C)=O)C(C)=O)cc2)[C@H](OC(C)=O)[C@@H](OC(C)=O)[C@@H]1OC(C)=O,,resazurin,H37Rv,,MIC bound,,>6.25 µg/mL
CC(C)CCc1ccc(Oc2ccc(Cl)cc2Cl)c(O)c1,,,Clinical isolate 12081,,MIC,,240 µM
CN1c2ccccc2C(=O)Nc2cnc(Cl)nc21,12.5 µg/mL,BACTEC,H37Rv,,inhibition,,26%
Cc1ccc(C)c(CSc2nc(=O)[nH]c3nc[nH]c23)c1,6.25 µg/mL,,H37Rv,,inhibition,,5%
NCCCN1c2ccccc2Sc2ccccc21,,resazurin,H37Rv,,MIC,,0.312 µg/mL
Cn1c(=O)c2nc(-c3ccccc3)nnc2n(C)c1=O,12.5 µg/mL,BACTEC,H37Rv,,inhibition,,96%
CCC(C(=O)NN)c1ccccc1,,,,,EC50,,<0.25 µg/mL
CNCCCN1c2ccccc2CCc2ccccc21,,,,,MIC,,>25 µg/mL

Repeating the first 10 entries:

SMILES | tested at | read by | strain or isolate | cell line | read-out | changes | value
Cc1ccc(Sc2nc(Cl)nc3nc[nH]c23)cc1C |  |  | H37Ra |  | MIC |  | >12.8 µg/mL
Cc1nc2scc(-c3ccco3)c2c(=O)n1/N=C/c1ccco1 |  |  | CNCTC MY331/88 |  | MIC |  | 56 µM
O=[N+]([O-])c1ccc(Sc2nc3c(Br)c(Br)c(Br)c(Br)c3[nH]2)c([N+](=O)[O-])c1 |  |  | My 331/88 |  | MIC |  | 16 µM
O=C(Nc1ccc(S(=O)(=O)Nc2nccs2)cc1)c1cccnc1Nc1cccc(Cl)c1 |  | BACTEC | H37Rv |  | MIC bound |  | >12.5 µg/mL
O=C(NNCc1cccc(C(F)(F)F)c1)c1ccncc1 |  |  | Thiacetazone-resistant |  | MIC |  | >6.25 µg/mL
Cc1nc2scc(-c3ccco3)c2c(=O)n1/N=C/c1ccccc1 |  |  | CNCTC MY331/88 |  | MIC |  | 50 µM
O=c1ccc2nc3ccccc3sc-2c1 | 12.5 µg/mL | BACTEC | H37Rv |  | inhibition |  | 98%
CO[C@H]1/C=C/O[C@@]2(C)Oc3c(C)c(O)c4c(O)c(c(/C=N/N5CCN(C)CC5)c(O)c4c3C2=O)NC(=O)/C(C)=C\C=C\[C@H](C)[C@H](O)[C@@H](C)[C@@H](O)[C@@H](C)[C@H](OC(C)=O)[C@@H]1C |  | resazurin | SIT26 |  | MIC |  | 2 µg/mL
CC[C@@H](O)C[C@@H]1O[C@@]2(CC[C@@H]1C)C[C@@H]1OC(=O)/C=C/[C@@](C)(O)[C@@H](O)[C@@H](C)[C@@H](O)[C@H](OC3CC(OC)C(O)C(C)O3)[C@@H](O)[C@](C)(O)CCC/C=C/[C@@H]3C[C@H](C)CO[C@@]3(O)C[C@H](O2)[C@H]1C |  | BACTEC | H37Rv |  | MIC |  | ≥12.5 µg/mL
O=C(Cc1csc2nc(-c3ccccc3)cn12)N/N=C/c1c(Cl)cccc1Cl | 12.5 µg/mL |  | H37Rv |  | inhibition |  | 17%